Measured values from several laboratories, pooled; numbers as filed in NIAID ChemDB.

Common to all: whole-cell or culture tests; species: Hepatitis C virus; cells: Huh 5-2; measure: EC50

Neighbouring rows are from separate reports. ECn: concentration that inhibits the pathogen or its effect by n%. An empty or dashed field is not shown.

smiles	strain	read by	result
CNc1ncnc2c1ncn2[C@@H]1O[C@H](CO)[C@](O)(CF)[C@H]1O	genotype 1	luciferase	>100 µM
O=c1ccoc2cc(-c3ccccc3)c(OCc3cccc(Br)c3)c(O)c12	genotype 1	luciferase	18 µM
COc1cc(OC)cc(N(C)c2cc(OP(=O)(O)OP(=O)(O)O)c(N)cc2C(=O)O)c1	-	replicon	>50 µg/mL
COC(=O)/C=C1\S/C(=N/N=C/C2CCCCC2)NC1=O	1b Con1 (replicon)	luciferase / luminescence	16.5 µM
COc1ccc(/C=C2\S/C(=N/S(=O)(=O)c3ccc(Cl)cc3)NC2=O)cc1	1b	luciferase	>71.07 µM
COC(=O)/C=C1\S/C(=N/N=C/c2ccc(Cl)cc2)NC1=O	1b Con1 (replicon)	luciferase / luminescence	18 µM
[N-]=[N+]=NC[C@@]1(O)[C@@H](CO)O[C@@H](n2cnc3c(N)ncnc32)[C@@H]1O	genotype 1	luciferase	11.8 µM
NC(=O)c1nc(C#CCc2ccc(F)cc2)n(COCCO)n1	-	luciferase / reporter gene	22 µg/mL
O=C1N/C(=N\S(=O)(=O)c2ccc(F)cc2)S/C1=C\c1ccccc1Cl	1b	luciferase	>115 µM
COC(=O)/C=C1\S/C(=N/N=C/c2ccccc2OCc2ccccc2)NC1=O	1b Con1 (replicon)	luciferase / luminescence	3.9 µM
[N-]=[N+]=NC[C@@]1(O)[C@@H](CO)O[C@@H](n2cnc3c(=O)[nH]cnc32)[C@@H]1O	genotype 1	luciferase	>100 µM
Cc1ccc(S(=O)(=O)/N=C2\NC(=O)/C(=C/c3ccc(-c4ccccc4)cc3)S2)cc1	1b	luciferase	58.75 µM
NC(=O)c1nc(C#CCc2ccccc2F)n(COCCO)n1	-	luciferase / reporter gene	20 µg/mL
COC(=O)/C=C1\S/C(=N/N=C/c2cc([N+](=O)[O-])ccc2O)NC1=O	1b Con1 (replicon)	luciferase / luminescence	1.94 µM
NC(=O)c1nc(C#CCCCCCl)n(COCCO)n1	-	luciferase / reporter gene	>50 µg/mL
Cc1ccc(S(=O)(=O)/N=C2\NC(=O)/C(=C/c3cccnc3)S2)cc1	1b	luciferase	16.63 µM
N#Cc1cccc(COc2c(-c3ccccc3)cc3occc(=O)c3c2O)c1	genotype 1	luciferase	20 µM
COc1ccccc1N1CCN(C(=O)CNc2ccc(S(=O)(=O)/N=C3\NC(=O)/C(=C/c4ccccc4Cl)S3)cc2)CC1	1b	luciferase	22.68 µM
NC(=O)c1nc(C#CCC2=CCCCC2)n(COCCO)n1	-	luciferase / reporter gene	>50 µg/mL

2 of the rows above, restated:

| smiles | strain | read by | result |
|---|---|---|---|
| O=C1N/C(=N\S(=O)(=O)c2ccc(F)cc2)S/C1=C\c1ccccc1Cl | 1b | luciferase | >115 µM |
| Cc1ccc(S(=O)(=O)/N=C2\NC(=O)/C(=C/c3ccc(-c4ccccc4)cc3)S2)cc1 | 1b | luciferase | 58.75 µM |